Chains of the proteins cited; added tags and fusions are not shown.
UniProt O77389, whole entry: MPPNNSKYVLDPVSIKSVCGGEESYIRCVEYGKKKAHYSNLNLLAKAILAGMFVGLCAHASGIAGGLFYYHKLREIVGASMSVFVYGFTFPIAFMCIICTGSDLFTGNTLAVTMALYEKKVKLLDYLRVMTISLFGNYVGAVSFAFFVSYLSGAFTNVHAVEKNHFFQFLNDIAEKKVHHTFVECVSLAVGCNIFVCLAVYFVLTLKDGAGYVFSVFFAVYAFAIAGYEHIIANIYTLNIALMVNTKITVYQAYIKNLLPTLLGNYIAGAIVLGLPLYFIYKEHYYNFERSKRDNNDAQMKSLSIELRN

According to patent publication US20190358174A1, “ACTIVE AGENTS AGAINST PROTOZOA” (Christian-Albrechts-Universität zu Kiel, priority 2016, published 2019):

Molecular target: FNT wild-type (Plasmodium falciparum, UniProt O77389)
Experiment: yeast test system, 14C-L-lactate uptake, FNT wild-type expressed in Saccharomyces cerevisiae
Assay type: cell-based
Settings: read-out: IC50 against FNT wild-type, 15 to 20 min preincubation, 1 mM lactate, pH 6.8
From the text: The FNT of the wild-type plasmodium (available under accession number PF3D7_0316600 in the data bank PlasmoDB) and of the resistant plasmodia (position of the mutation in the open reading frame: guanine 319 to adenine) were expressed in the yeast Saccharomyces cerevisiae W303-1A jen1Δ ady2Δ from plasmid pDR196 (PMA promoter). In the yeast, the endogenous genes for the monocarboxylate transporter Jenlp (sequence accession No. CAA82062 NCBI) and Ady2p (sequence accession No. KZV 12856) were deleted (obtained from M. Casal, Universidade do Minho, Portugal).
This yeast was grown in SD medium with addition of adenine, histidine, leucine, tryptophan and 2% (wt/v) glucose at 30° C. up to an OD600 of 0.8 to 1.0, harvested by centrifugation and washed once with water and centrifuged down again, and suspended in 50 mM HEPES/TRIS (pH 6.8) and adjusted to an OD600 of 50±10% and stored on ice. […] After 24 h of incubation at 18° C. in the scintillation cocktail, in which the cells were lysed, the amount of radioactively labelled lactate was measured by means of a scintillation counter. The total amount of lactate which was taken up by the yeast was calculated from the measured amount of radioactively labelled lactate. […]

O=C(/C=C(\O)C(F)(F)C(F)(F)F)c1cccc(Cl)c1O
IC50: 250 nM
